The structures appear in SMILES notation.

The values that follow come from paper PMC9115881, “Penicillin Derivatives Inhibit the SARS-CoV-2 Main Protease by Reaction with Its Nucleophilic Cysteine” (Journal of Medicinal Chemistry, 2022).

The assay has as its target SARS-CoV-2 M^pro (Severe acute respiratory syndrome coronavirus 2, UniProt P0DTD1). The experiment in a line: SPE-MS M^pro inhibition assay, 37mer peptide substrate. Format: biochemical. The conditions noted are these: Table 4; M^pro 0.15 μM, 37mer substrate 2.0 μM; mean ± SD, n ≥ 2.

`CC1(C)S[C@H]2N(C(=O)C2(Br)Br)[C@H]1C(=O)OCc1ccc([N+](=O)[O-])cc1` displayed an IC50 greater than 50 µM.

Regarding `CC1(C)S[C@H]2N(C(=O)C2(Br)Br)[C@H]1C(=O)O`, the IC50 is greater than 50 µM.

By IC50 is commonly meant the concentration at which inhibition is half-maximal. The low end stands for inhibition by little substance, the high end for a need for much substance.
